Pooled drug test results. Numbers come from NIAID ChemDB, via PubChem.

Common to all: whole-cell or culture tests; species: Candida parapsilosis

Rows are shuffled and stem from different studies. ECn: concentration that inhibits the pathogen or its effect by n%. MIC50, MIC90 and the like: level of inhibition, or share of isolates inhibited. An empty or dashed field is not shown. Inhibition is in % at the dose shown (toxicity tests: loss of growth or viability).

compound | strain | read by | endpoint | tested at | result
C[C@@H](c1ncncc1F)[C@](O)(Cn1cncn1)c1ccc(F)cc1F |  | broth dilution | MIC90 |  | 0.016 µg/mL
O/N=C\c1ccccc1Cl |  |  | MIC100 |  | 1420 µM
O=C(/C=C/c1ccc(Cl)cc1)OC1CCN(CC(O)(Cn2cncn2)c2ccc(F)cc2F)CC1 | 0306392 | broth dilution | MIC80 |  | 0.124 µM
CC(C)(O)c1cn(-c2ccc3ccccc3c2)nn1 | URM 3621 | broth dilution | inhibition | 2048 µg/mL | 0%
CC(C(=O)O)N1C(=O)CSC1c1ccccc1 |  | broth dilution | EC50 |  | 78.12 µM
C[C@@H](c1ncncc1F)[C@](O)(Cn1cncn1)c1ccc(F)cc1F |  | broth dilution | MIC90 |  | 0.25 µg/mL
Clc1ccc(C(c2ccccc2)n2cnc3ccccc32)cc1 |  | agar | MIC90 |  | >256 µg/mL
CCCCCCCC(=O)OC1CCN(CC(O)(Cn2cncn2)c2ccc(F)cc2F)CC1 | 0306392 | broth dilution | MIC80 |  | 0.139 µM
CC(C)(O)c1cn(-c2cccc3ccccc23)nn1 | URM 4970 | broth dilution | inhibition | 2048 µg/mL | 0%
O=C1C(=O)c2ccccc2C2=C1CC(CI)O2 | Clinical isolate | broth dilution | MIC |  | 40.32 µg/mL
O=C(/C=C/c1cccc([N+](=O)[O-])c1)OC1CCN(CC(O)(Cn2cncn2)c2ccc(F)cc2F)CC1 | 0306392 | broth dilution | MIC80 |  | 0.122 µM
O/N=C\c1ccc(F)cc1 |  |  | MIC100 |  | 3600 µM
O=C(c1ccccc1)C(c1ccccc1)n1cnc2ccccc21 |  | agar | MIC90 |  | 128 µg/mL
Cc1ccc(-c2c3c(N)c4c(nc3nc3c2c(C)nn3-c2ccccc2)CCC4)cc1 | CCC 124 | broth dilution / absorbance | MIC50 |  | 62.5 µg/mL
CC(C)(O)c1cn(-c2ccc([N+](=O)[O-])cc2)nn1 | URM 4608 | broth dilution | inhibition | 2048 µg/mL | 0%
CCC(C)n1ncn(-c2ccc(N3CCN(c4ccc(OC[C@H]5CO[C@](Cn6cncn6)(c6ccc(Cl)cc6Cl)O5)cc4)CC3)cc2)c1=O | 0306392 | broth dilution | MIC80 |  | 0.354 µM
COc1ccc(/C=N\O)cc1 |  | broth dilution | MFC |  | 3310 µM
O=C(O)CN1C(=O)CCSC1c1ccccn1 |  | broth dilution | EC50 |  | 80.51 µM
CCCCCOc1ccc(-c2cc(-c3ccc(C(=O)N[C@H]4C[C@@H](O)[C@@H](O)NC(=O)[C@@H]5[C@@H](O)[C@@H](C)CN5C(=O)[C@H]([C@H](O)CC(N)=O)NC(=O)[C@H]([C@H](O)[C@@H](O)c5ccc(O)c(OS(=O)(=O)O)c5)NC(=O)[C@@H]5C[C@@H](O)CN5C(=O)[C@H]([C@@H](C)O)NC4=O)cc3)no2)cc1 |  | broth dilution | MIC90 |  | 1 µg/mL
O=C(O)CN1C(=O)CSC1c1ccccn1 |  | broth dilution | EC50 |  | 78.61 µM
CCCCCCCCC(=O)OC1CCN(CC(O)(Cn2cncn2)c2ccc(F)cc2F)CC1 | 0306392 | broth dilution | MIC80 |  | 0.538 µM
CC1C(=O)N(CCc2ccccc2)C(=O)C1C | CCC 124-2000 | broth dilution / turbidity | MIC |  | 250 µg/mL
COc1ccccc1C1SC(C)C(=O)N1C(Cc1ccccc1)C(=O)O |  | broth dilution | EC50 |  | 81.27 µM
CC(C)(O)c1cn(-c2ccc(Cl)cc2)nn1 | URM 3621 | broth dilution | MIC |  | 64 µg/mL
O=C(O)C(Cc1ccccc1)N1C(=O)CSC1c1ccccn1 |  | broth dilution | EC50 |  | 80.64 µM
Clc1ccc(C(c2ccccc2)n2nnc3ccccc32)cc1 |  | agar | MIC90 |  | >256 µg/mL
Cc1ccc(-c2c3c(N)c4c(nc3nc3c2c(C)nn3-c2ccccc2)CCCC4)cc1 | CCC 124 | broth dilution / absorbance | MIC50 |  | 31.2 µg/mL
O/N=C\c1ccc(O)cc1 |  | broth dilution | MIC100 |  | >7290 µM
O=C(/C=C/c1ccc(F)cc1)OC1CCN(CC(O)(Cn2cncn2)c2ccc(F)cc2F)CC1 | 0306392 | broth dilution | MIC80 |  | 0.129 µM
COc1ccccc1C1SCC(=O)N1C(CC(C)C)C(=O)O |  | broth dilution | EC50 |  | 56.51 µM
C[C@H]1[C@H](O)[C@@H](C)/C=C/C=C/C=C/C=C/C=C/C=C/C=C/[C@H](O[C@@H]2O[C@H](C)[C@@H](O)[C@H](N)[C@@H]2O)C[C@@H]2O[C@](O)(C[C@@H](O)C[C@@H](O)CC[C@H](O)[C@@H](O)C[C@@H](O)CC(=O)O[C@H]1C)C[C@H](O)[C@H]2C(=O)O | CCC 124 | broth dilution / absorbance | MIC100 |  | 0.78 µg/mL
Cc1ccc(N2C(=O)CC(C)C2=O)cc1 | CCC 124-2000 | broth dilution / turbidity | MIC |  | 250 µg/mL
O=C(c1ccccc1)C(c1ccccc1)n1nnc2ccccc21 |  | broth dilution | MFC |  | >256 µg/mL
CCCC(=O)OC1CCN(CC(O)(Cn2cncn2)c2ccc(F)cc2F)CC1 | 0306392 | broth dilution | MIC80 |  | 0.153 µM
CC1CC(=O)N(c2ccc(Br)cc2)C1=O | CCC 124-2000 | broth dilution / turbidity | MIC |  | 250 µg/mL
CC(C(=O)O)N1C(=O)CSC1c1ccc(Cl)cc1 |  | broth dilution | EC50 |  | 79.61 µM
C=CCc1ccc(O)c(OC)c1 | 3277 | turbidity | MIC90 |  | 485 µg/mL
O/N=C\c1cccs1 |  |  | MIC100 |  | 3930 µM
C[C@@H]1CC(=O)N(CCCc2ccccc2)C1=O | CCC 124-2000 | broth dilution / turbidity | MIC |  | 125 µg/mL
Nc1ncccc1-c1cc(Cc2ccc(COc3ccccn3)cc2)no1 |  | broth dilution | MIC90 |  | 0.06 µg/mL
CC(C)CC(C(=O)O)N1C(=O)C(C)SC1c1ccccc1 |  | broth dilution | EC50 |  | 79.52 µM
c1ccc(C(c2ccccc2)n2cnc3ccccc32)cc1 |  | agar | MIC90 |  | >256 µg/mL